Consider two molecules from ChEMBL document CHEMBL1157539, “Thousands of chemical starting points for antimalarial lead identification” (Nature, 2010).

Only a part is listed here, and it is no random draw.

The subject of the assay is Plasmodium falciparum. Briefly: GSK_TCMDC: Inhibition of Plasmodium falciparum 3D7 LDH activity, using an LDH reporter assay. Test compounds present at 2uM. The assay is classed as functional, organism-based.
Molecule `CCN1CCCC1COC(=O)C(O)(c1ccc2c(c1)OCO2)c1ccc2c(c1)OCO2` (configuration not stated) came in with an inhibition of 0%.

Regarding `CCN1CCCC(OC(=O)C(O)(c2ccc3c(c2)OCO3)c2ccc3c(c2)OCO3)C1` (configuration not stated), the inhibition worked out at 0%.
